This assay concerns C30 anti-STp monoclonal antibody. Description: Competitive ST ELISA with the C30 mAb. The assay is classed as binding. To be noted: read-out: IC50, competitive C30 mAb ELISA after denaturation and refolding of STh; STh denatured with 10 mM DTT, 56 °C, 1 h; refolding in GSH/GSSG buffer (0.6/0.4 mM) 1 h room temperature, with or without DsbC or BSA; three independent ELISAs; Figure 3A. A general note: In an ELISA, binding on a coated surface is turned into a signal by an enzyme label.

The record followed here is paper PMC6071264 (Toxins, 2018).

As for `CC(C)C[C@H](NC(=O)[C@H](CCC(=O)O)NC(=O)[C@H](CS)NC(=O)[C@H](CS)NC(=O)[C@H](Cc1ccc(O)cc1)NC(=O)[C@H](CC(N)=O)NC(=O)[C@H](CO)NC(=O)[C@H](CO)NC(=O)[C@@H](N)CC(N)=O)C(=O)N[C@@H](CS)C(=O)N[C@@H](CS)C(=O)N[C@@H](CC(N)=O)C(=O)N1CCC[C@H]1C(=O)N[C@@H](C)C(=O)N[C@@H](CS)C(=O)N[C@H](C(=O)NCC(=O)N[C@@H](CS)C(=O)N[C@@H](Cc1ccc(O)cc1)C(=O)O)[C@@H](C)O`, the IC50 was 2110 nM.
